Measured values from several laboratories, pooled; numbers as filed in NIAID ChemDB.

All rows: target-level tests; agent: HIV-1; target: Reverse transcriptase; read-out: Ki

Neighbouring rows are from separate reports.

{"smiles": "Nc1nc2c(ncn2[C@H]2CC[C@@H](COP(=O)(O)OP(=O)(O)OP(=O)(O)O)O2)c(=O)[nH]1", "mutations": "RT-Q151M", "read by": "nucleotide incorporation / radiometric", "result": "0.027 µM"}
{"smiles": "CSCSc1nc(Cc2ccccc2)c(C(C)C)c(=O)[nH]1", "read by": "scintillation proximity", "result": "0.56 µM"}
{"smiles": "Nc1ncnc2c1ncn2[C@H]1CC[C@@H](COP(=O)(O)OP(=O)(O)OP(=O)(O)O)O1", "mutations": "RT-K65R", "read by": "nucleotide incorporation", "result": ">100 µM"}
{"smiles": "Cc1c(Cc2ccccc2)nc(SCCCCO)[nH]c1=O", "mutations": "RT-V179D", "result": "115 µM"}
{"smiles": "NC(=O)c1[nH]c2ccc(Cl)cc2c1S(=O)(=O)c1ccccc1", "read by": "nucleotide incorporation / radiometric", "result": "0.0013 µM"}
{"smiles": "Cc1cc(C)cc(S(=O)(=O)c2c(C(=O)NCCOc3ccccc3)[nH]c3ccc(Cl)c(F)c23)c1", "mutations": "K103N", "read by": "RT activity / nucleotide incorporation", "result": "0.006 µM"}
{"smiles": "Nc1nc(=O)n([C@H]2CS[C@@H](COP(=O)(O)OP(=O)(O)OP(=O)(O)O)O2)cc1F", "result": "1.7 µM"}
{"smiles": "Nc1ccn([C@H]2CS[C@@H](COP(=O)(O)OP(=O)(O)OP(=O)(O)O)O2)c(=O)n1", "read by": "nucleotide incorporation", "result": "0.22 µM"}
{"smiles": "C=CC(C)(C)c1[nH]c2ccccc2c1C1=C(O)C(=O)C(c2cn3c4c(cccc24)CCC3(C)C)=C(O)C1=O", "read by": "binding", "result": "1.5 µM"}
{"smiles": "O=c1ccn(C2C=CC(OP(=O)(O)Cc3ccccc3)C2)c(=O)n1Cc1ccccc1", "read by": "RT activity", "result": ">100 µM"}
{"smiles": "CCc1c(Cc2ccccc2)nc(SCSC)[nH]c1=O", "read by": "scintillation proximity", "result": "2 µM"}
{"smiles": "Nc1ccn([C@H]2CC[C@@H](COP(=O)(O)OP(=O)(O)OP(=O)(O)O)O2)c(=O)n1", "strain": "IIIB", "mutations": "RT-1(IIIB)", "read by": "nucleotide incorporation / radiometric", "result": "3.3 µM"}
{"smiles": "O=C(CSc1nc2c(ncn2[C@H]2C[C@H](O)[C@@H](COP(=O)(O)OP(=O)(O)OP(=O)(O)O)O2)c2nccn12)Cc1ccccc1", "read by": "radiometric", "result": "6 µM"}
{"smiles": "Nc1ncnc2c1ncn2[C@H]1CC[C@@H](COP(=O)(O)OP(=O)(O)OP(=O)(O)O)O1", "strain": "LAV", "read by": "nucleotide incorporation", "result": "5.75 µM"}
{"smiles": "Nc1ccn([C@@H]2O[C@H](CO)C[C@@H]2F)c(=O)n1", "result": "0.071 µM"}
{"smiles": "COc1ccccc1N1CCN(c2nc(Cc3c(F)cccc3F)c(C)c(=O)[nH]2)CC1", "mutations": "V179D", "read by": "nucleotide incorporation", "result": "8.5 µM"}
{"smiles": "O=c1ccn(C2C=CC(OP(=O)(Cc3ccccc3)OCc3ccccc3)C2)c(=O)n1Cc1ccccc1", "read by": "RT activity", "result": ">100 µM"}
{"smiles": "O=P(O)(O)OP(=O)(O)O", "mutations": "RT-Q151N", "read by": "nucleotide incorporation / radiometric", "result": "316 µM"}
{"smiles": "Cc1cc(C)cc(S(=O)(=O)c2c(C(N)=O)[nH]c3ccc(Cl)cc23)c1", "strain": "WT", "read by": "nucleotide incorporation / radiometric", "result": "0.0003 µM"}
{"smiles": "CC(CC12CC3CC(CC(C3)C1)C2)Nc1nc2c([nH]1)c(=O)n(C)c(=O)n2C", "read by": "RT activity / radiometric", "result": ">200 µM"}
{"smiles": "O=c1ccn(C2C=CC(OP(=O)(O)Cc3ccccc3)C2)c(=O)[nH]1", "read by": "RT activity", "result": ">100 µM"}
{"smiles": "Cc1cc(C)cc(S(=O)(=O)c2c(C(=O)NCC(N)=O)[nH]c3ccc(Cl)c(F)c23)c1", "mutations": "WT", "read by": "RT activity / nucleotide incorporation", "result": "0.025 µM"}
{"smiles": "Nc1ccn([C@H]2CC[C@@H](COP(=O)(O)OP(=O)(O)OP(=O)(O)O)O2)c(=O)n1", "result": "0.08 µM"}
{"smiles": "[N-]=[N+]=Nc1ccc(C(=O)CSc2nc3c(ncn3[C@H]3C[C@H](O)[C@@H](COP(=O)(O)OP(=O)(O)OP(=O)(O)O)O3)c3nccn23)cc1", "read by": "radiometric", "result": "15 µM"}
{"smiles": "Nc1nc2c(ncn2[C@H]2CC[C@@H](COP(=O)(O)OP(=O)(O)OP(=O)(O)O)O2)c(=O)[nH]1", "strain": "LAV", "read by": "nucleotide incorporation", "result": "0.03 µM"}
{"smiles": "Nc1nc2c(ncn2[C@H]2CO[C@@H](COP(=O)(O)OP(=O)(O)OP(=O)(O)O)O2)c(=O)[nH]1", "strain": "WT", "read by": "radiometric", "result": "0.05 µM"}
{"smiles": "Nc1nc2c(ncn2[C@@H]2C[C@H](COP(=O)(O)OP(=O)(O)OP(=O)(O)O)[C@H]2CO)c(=O)[nH]1", "result": "0.3 µM"}
{"smiles": "Cn1c(=O)c2[nH]c(NCCC34CC5CC(CC(C5)C3)C4)nc2n(C)c1=O", "read by": "RT activity / radiometric", "result": ">200 µM"}
{"smiles": "CCC(c1nc(N(C)C)[nH]c(=O)c1C)c1c(F)cccc1F", "mutations": "Y181I", "read by": "nucleotide incorporation", "result": ">20 µM"}
{"smiles": "O=c1cc(Cc2ccccc2)nc(SCCCCO)[nH]1", "mutations": "RT-V106A", "result": "157 µM"}
{"smiles": "[B-][P@](=O)(OC[C@H]1O[C@@H](n2cc(C)c(=O)[nH]c2=O)C[C@@H]1N=[N+]=[N-])OP(=O)(O)OP(=O)(O)O", "read by": "fluorescence", "result": "0.009 µM"}
{"smiles": "O=c1[nH]c(=O)n([C@H]2C[C@H](O)[C@@H](COP(=O)(O)OP(=O)(O)OP(=O)(O)O)O2)cc1I", "strain": "LAV", "read by": "nucleotide incorporation", "result": "1.8 µM"}
{"smiles": "O=C(CSc1nc2c(ncn2[C@H]2C[C@H](O)[C@@H](COP(=O)(O)OP(=O)(O)OP(=O)(O)O)O2)c2nccn12)c1ccc(C(F)(F)F)cc1", "read by": "radiometric", "result": "55 µM"}
{"smiles": "Nc1ccn([C@@H]2CS[C@H](COP(=O)(O)OP(=O)(O)OP(=O)(O)O)O2)c(=O)n1", "read by": "nucleotide incorporation", "result": "0.34 µM"}

The last 2 rows once more:

smiles,strain,mutations,read by,result
O=C(CSc1nc2c(ncn2[C@H]2C[C@H](O)[C@@H](COP(=O)(O)OP(=O)(O)OP(=O)(O)O)O2)c2nccn12)c1ccc(C(F)(F)F)cc1,-,-,radiometric,55 µM
Nc1ccn([C@@H]2CS[C@H](COP(=O)(O)OP(=O)(O)OP(=O)(O)O)O2)c(=O)n1,-,-,nucleotide incorporation,0.34 µM

An empty or dashed field is not shown.